Data as given in PubChem BioAssay AID1224833 (University of Georgia, 2016).

Aim: 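Human genes whose knock-down alters rotavirus replication in monkey cells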 (primary screen)
Cell system: monkey MA104 kidney cells
Knock-down reagent: siRNA pool against human genes, 50 nM
Time to read-out: 48 h knock-down before infection; read 24 h after infection
Conditions: infection with rotavirus strain RV3 two days after transfection; infectious dose for this stage not given
Measured: 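Rotavirus antigen per well by fluorescent immunoassay, normalised to non-targeting control wells on each plate and given as a standard z-score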
Reading the numbers: z-score vs non-targeting control: higher = more rotavirus replication than with non-targeting control
Hit rule: In these data the active calls have z-score vs non-targeting control at about -1 or lower, or at about 1 or higher
Meaning of the calls: active = z-score beyond 1 either way; inactive = z-score within 1 of zero
The deposit covers about 12,000 reagents; this is an unselected part. In the full data, about 5,600 (46%) are marked active. 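Active calls cover z-scores past 1 in both directions, so they include lowered as well as raised rotavirus replication.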

{"Target gene": "NUP54", "z-score vs non-targeting control": -0.818, "Call": "inactive"}
{"Target gene": "TROAP", "z-score vs non-targeting control": 1.46, "Call": "active"}
{"Target gene": "TBC1D2", "z-score vs non-targeting control": 0.0479, "Call": "inactive"}
{"Target gene": "SLC67A1", "z-score vs non-targeting control": -0.552, "Call": "inactive"}
{"Target gene": "TMEM230", "z-score vs non-targeting control": -0.302, "Call": "inactive"}
{"Target gene": "AP4S1", "z-score vs non-targeting control": 0.102, "Call": "inactive"}
{"Target gene": "MYDGF", "z-score vs non-targeting control": -0.8, "Call": "inactive"}
{"Target gene": "LTAP1", "z-score vs non-targeting control": 1.04, "Call": "active"}
{"Target gene": "NMD3", "z-score vs non-targeting control": 0.405, "Call": "inactive"}
{"Target gene": "OR8B4", "z-score vs non-targeting control": -0.882, "Call": "inactive"}
{"Target gene": "TEX28", "z-score vs non-targeting control": 0.327, "Call": "inactive"}
{"Target gene": "CFAP74", "z-score vs non-targeting control": 0.474, "Call": "inactive"}
{"Target gene": "ZNF202", "z-score vs non-targeting control": -1.58, "Call": "active"}
{"Target gene": "C1orf141", "z-score vs non-targeting control": 1.79, "Call": "active"}
{"Target gene": "TIMM29", "z-score vs non-targeting control": 1.51, "Call": "active"}
{"Target gene": "RTKN2", "z-score vs non-targeting control": -0.394, "Call": "inactive"}
{"Target gene": "SIPA1L2", "z-score vs non-targeting control": -1.46, "Call": "active"}
{"Target gene": "KPNA2", "z-score vs non-targeting control": -0.952, "Call": "inactive"}
{"Target gene": "ELAPOR1", "z-score vs non-targeting control": -1.56, "Call": "active"}
{"Target gene": "RAB6D", "z-score vs non-targeting control": 1.71, "Call": "active"}
{"Target gene": "CXCL10", "z-score vs non-targeting control": 0.113, "Call": "inactive"}
{"Target gene": "SIGMAR1", "z-score vs non-targeting control": -1.25, "Call": "active"}
{"Target gene": "PGBD4", "z-score vs non-targeting control": -0.47, "Call": "inactive"}
{"Target gene": "UGT2B11", "z-score vs non-targeting control": -0.966, "Call": "inactive"}
{"Target gene": "DNASE2", "z-score vs non-targeting control": -1.01, "Call": "active"}
{"Target gene": "OSBPL8", "z-score vs non-targeting control": -1.38, "Call": "active"}
{"Target gene": "MAGT1", "z-score vs non-targeting control": -0.575, "Call": "inactive"}
{"Target gene": "NSMCE4A", "z-score vs non-targeting control": 1.45, "Call": "active"}
{"Target gene": "S1PR2", "z-score vs non-targeting control": 3.35, "Call": "active"}
{"Target gene": "DDX19B", "z-score vs non-targeting control": -0.811, "Call": "inactive"}
{"Target gene": "TC2N", "z-score vs non-targeting control": -0.743, "Call": "inactive"}
{"Target gene": "CCIN", "z-score vs non-targeting control": -0.224, "Call": "inactive"}
